This note sets out measurements from US10774053B2, “HIV protease inhibitors” (Gilead Sciences, Inc., priority 2017, dated 2020).

Where only a bound is given, the exact number is not on record here.

A short description of data set [1]: Liver microsomal stability, human liver microsomes. Conditions: human liver microsomes 0.5 mg/mL, 1 uM compound, NADPH-regenerating system, 37° C. For orientation: Liver microsomes are vesicles of endoplasmic reticulum, rich in cytochrome P450 enzymes.
The subject of data set [2] is HIV-1 (IIIB) in MT-4 cells. Conditions: read-out: MT4 EC50.

Broadly, the EC50 is the midpoint of the concentration-response curve. `CC(C)(C)C[C@]1(c2ccc(-c3nncn3C(F)F)cc2F)NC(=N)N([C@H](COC(=O)NC2(C(F)(F)F)CC2)c2ccc(Cl)c(-n3ncnc3C(F)F)c2)C1=O`: the “Half-life in human liver microsomes” value in data set [1] was no less than 6.58 h. Besides, the EC50 in data set [2] worked out at 76.7 nM.
